US7585861B2, “HIV inhibiting 1,2,4-triazines” (Janssen Pharmaceutica, N.V., priority 2003, dated 2009)

The compounds below were run on HIV (assay: Test A: inhibition of the HIV-induced cytopathic effect in MT-4 cells (MTT)). Settings: selectivity index SI = ratio of CC50 to IC50.
Type: cell-based
Experimental: A rapid, sensitive and automated assay procedure was used for the in vitro evaluation of anti-HIV agents. An […] T4-cell line, MT-4, which was previously shown (Koyanagi et al., Int. J. Cancer, 36, 445-451, 1985) to be highly susceptible to and permissive for HIV infection, served as the target cell line. Inhibition of the HIV-induced cytopathic effect was used as the end point. The viability of both HIV- and mock-infected cells was assessed spectrophotometrically via the in situ reduction of 3-(4,5-dimethylthiazol-2-yl)-2,5-diphenyltetrazolium bromide (MTT). […] The percent protection achieved by the compound in HTV-infected cells was calculated by the following formula:
[formula] whereby (ODT)HIV is the optical density measured with a given concentration of the test compound in HIV-infected cells; (ODC)HIV is the optical density measured for the control unteated HIV-infected cells; (ODC)MOCK is the optical density measured for the control untreated mock-infected cells; all optical density values were determined at 540 nm. […] The ratio of CC50 to IC50 was defined as the selectivity index (SI).

| Structure (SMILES) | PSI |
| --- | --- |
| Cc1cc(OCC#N)cc(C)c1Nc1cnnc(Nc2ccc(C#N)cc2)n1 [Compound 41] | <−3.0 |
| Cc1cc(/C=C/C(=O)N2CCCC2)cc(C)c1Nc1nc(Nc2ccc(C#N)cc2)nnc1C [Compound 39] | <−3.2 |
| Cc1cc(C#N)cc(C)c1Oc1nc(Nc2ccc(C#N)cc2)nnc1Cl [Compound 3] | <−4.3 |
| Cc1cc(/C=C\C#N)cc(C)c1Nc1nc(Nc2ccc(C#N)cc2)nnc1C [Compound 19] | −4.4 |
| COc1cc(C)c(Nc2cnnc(Nc3ccc(C#N)cc3)n2)c(C)c1 [Compound 14] | <−4.8 |
| COc1cc(/C=C/C#N)cc(OC)c1Nc1nc(Nc2ccc(C#N)cc2)nnc1C [Compound 33] | −3.2 |
| COc1cc(C)c(Nc2nc(Nc3ccc(C#N)cc3)nnc2C)c(C)c1 [Compound 11] | <−3.7 |
| Cc1cc(CCC#N)cc(C)c1Nc1cnnc(Nc2ccc(C#N)cc2)n1 [Compound 9] | <−3.8 |
| Cc1cc(C#N)cc(C)c1Nc1cnnc(Nc2ccc(C#N)cc2)n1 [Compound 1] | <−4.7 |
| Cc1nnc(Nc2ccc(C#N)cc2)nc1Nc1c(Cl)cc(/C=C/C#N)cc1Cl [Compound 34] | −3.6 |
| Cc1cc(CC#N)cc(C)c1Nc1nc(Nc2ccc(C#N)cc2)nnc1C [Compound 20] | <−4.0 |
| Cc1cc(C(C)(C)C)cc(C)c1Nc1nc(Nc2ccc(C#N)cc2)nnc1C [Compound 18] | <−4.1 |
| Cc1cc(C(C)(C)C)cc(C)c1Nc1cnnc(Nc2ccc(C#N)cc2)n1 [Compound 17] | <−4.0 |
| CCOc1cc(C)c(Nc2nc(Nc3ccc(C#N)cc3)nnc2C)c(C)c1 [Compound 35] | <−3.6 |
| Cc1cc(/C=C/C(=O)N(C)C)cc(C)c1Nc1nc(Nc2ccc(C#N)cc2)nnc1C [Compound 22] | <−2.5 |
| Cc1cc(C)c(Nc2nnc(Cl)c(Nc3ccc(C#N)cc3)n2)c(C)c1 [Compound 45] | <−3.0 |
| Cc1cc(/C=C/C(=O)N2CCOCC2)cc(C)c1Oc1nc(Nc2ccc(C#N)cc2)nnc1C [Compound 47] | <−3.5 |
| Cc1cc(/C=C/C#N)cc(C)c1Nc1cnnc(Nc2ccc(C#N)cc2)n1 [Compound 8] | <−3.3 |
| Cc1cc(Br)cc(C)c1Nc1nc(Nc2ccc(C#N)cc2)nnc1C [Compound 16] | −4.5 |
| Cc1cc(Br)cc(C)c1Nc1cnnc(Nc2ccc(C#N)cc2)n1 [Compound 15] | <−4.8 |

| Structure (SMILES) | PSI |
| --- | --- |
| Cc1cc(C)c(Sc2nc(Nc3ccc(C#N)cc3)nnc2Cl)c(C)c1 [Compound 46] | <−3.3 |
| Cc1cc(OCC#N)cc(C)c1Nc1nc(Nc2ccc(C#N)cc2)nnc1C [Compound 38] | −4.2 |
| Cc1cc(CC#N)cc(C)c1Nc1cnnc(Nc2ccc(C#N)cc2)n1 [Compound 24] | <−4.2 |
| Cc1cc(C)c(Nc2nc(Nc3ccc(C#N)cc3)nnc2Cl)c(C)c1 [Compound 44] | <−4.0 |
| Cc1cc(C)c(Nc2nc(Nc3ccc(C#N)cc3)nnc2C)c(CC#N)c1 [Compound 27] | <−4.3 |
| COc1cc(C)cc(C)c1Nc1nc(Nc2ccc(C#N)cc2)nnc1C [Compound 23] | −2.5 |
| CC(C#N)=Cc1cc(C)c(Nc2nc(Nc3ccc(C#N)cc3)nnc2C)c(C)c1 [Compound 42] | −4.3 |
| COc1cc(OC)c(Nc2nc(Nc3ccc(C#N)cc3)nnc2C)c(OC)c1 [Compound 25] | −4.3 |
| CNC(=O)c1cc(C)c(Nc2cnnc(Nc3ccc(C#N)cc3)n2)c(C)c1 [Compound 37] | −2.7 |
| COc1cc(CCC#N)cc(OC)c1Nc1nc(Nc2ccc(C#N)cc2)nnc1C [Compound 40] | −3.6 |
| Cc1cc(CCC#N)cc(C)c1Nc1nc(Nc2ccc(C#N)cc2)nnc1C [Compound 2] | <−5.0 |
| Cc1cc(C)c(Nc2nc(Nc3ccc(C#N)cc3)nnc2C)c(C)c1 [Compound 12] | <−4.9 |
| N#Cc1ccc(Nc2nncc(Nc3c(Cl)cc(C#N)cc3Cl)n2)cc1 [Compound 10] | <−3.1 |
| Cc1cc(C)c(Nc2cnnc(Nc3ccc(C#N)cc3)n2)c(C)c1 [Compound 7] | <−3.8 |
| CCOc1cc(C)c(Nc2cnnc(Nc3ccc(C#N)cc3)n2)c(C)c1 [Compound 43] | <−3.5 |
| Cc1cc(/C=C/C#N)cc(C)c1Nc1nc(Nc2ccc(C#N)cc2)nnc1C [Compound 13] | <−4.2 |
| Cc1cc(C(=O)N(C)C)cc(C)c1Nc1nc(Nc2ccc(C#N)cc2)nnc1C [Compound 31] | <−3.5 |
| COc1cc(OC)c(Nc2cnnc(Nc3ccc(C#N)cc3)n2)c(OC)c1 [Compound 36] | <−5.3 |
| Cc1cc(C#N)cc(C)c1Nc1nc(Nc2ccc(C#N)cc2)nnc1C [Compound 5] | <−4.7 |
